Experimental data: PubChem BioAssay AID504761 (Drosophila RNAi Screening Center, 2011)
Screen: 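Insect host genes that dengue virus relies on to spread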 (primary screen). Cells: D.Mel-2 cells from Drosophila. Reagent: long dsRNA against Drosophila genes. Challenge: infection with dengue virus type 2; dose and infection time not stated. Measurement: 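Per well on two replicate plates, imaging gave the percent of cells positive for viral envelope protein, ranked by infection, and a nuclear count of cells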. Scale: infection score: higher = more virus-infected cells; cell count: higher = more cells in the well. Active means: 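Very low infection ranking in both replicate wells (chance probability at most 0.065), then a retest showing infection dropped 1.5-fold or more at p below 0.05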. Meaning of the calls: active = confirmed: knock-down lowers infection; inactive = not picked or not confirmed.
In all, the deposit lists about 22,000 reagents; below is an unselected part of those with a known target gene and a result. In the full data, 116 (0.52%) were called active. 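Calls depend on retest data that are not deposited; infection was ranked per plate without normalising between plates; the unit of the infection score is not given.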 Raw values are not corrected between plates. A plus sign joins genes that one reagent is predicted to hit. Further read-outs or replicates are left out here. Not stated in the record: the amount of reagent, the time to read-out.

{"predicted target": "TyrRII (GeneID 42135)", "dsRNA": "DRSC15150", "infection score, replicate 1": 0.85, "cell count, replicate 1": 6365, "activity call": "inactive"}
{"predicted target": "TyrRII (GeneID 42135)", "dsRNA": "DRSC25254", "infection score, replicate 1": 1.45, "cell count, replicate 1": 5875, "activity call": "inactive"}
{"predicted target": "CG5890 (GeneID 43126)", "dsRNA": "DRSC15909", "infection score, replicate 1": 5.41, "cell count, replicate 1": 6306, "activity call": "inactive"}
{"predicted target": "Gpat4 (GeneID 37852)", "dsRNA": "DRSC04345", "infection score, replicate 1": 25.7, "cell count, replicate 1": 5702, "activity call": "inactive"}
{"predicted target": "RpLP2 (GeneID 36855)", "dsRNA": "DRSC07539", "infection score, replicate 1": 4.55, "cell count, replicate 1": 1804, "activity call": "inactive"}
{"predicted target": "RpLP2 (GeneID 36855)", "dsRNA": "DRSC28510", "infection score, replicate 1": 3.3, "cell count, replicate 1": 576, "activity call": "inactive"}
{"predicted target": "SmydA-1 (GeneID 36581)", "dsRNA": "DRSC07200", "infection score, replicate 1": 7.21, "cell count, replicate 1": 5921, "activity call": "inactive"}
{"predicted target": "CG6709 + Hez", "dsRNA": "DRSC10165", "infection score, replicate 1": 4.83, "cell count, replicate 1": 6288, "activity call": "inactive"}
{"predicted target": "CG6709 + Hez", "dsRNA": "DRSC10698", "infection score, replicate 1": 19.5, "cell count, replicate 1": 6032, "activity call": "inactive"}
{"predicted target": "mv (GeneID 38259)", "dsRNA": "DRSC08208", "infection score, replicate 1": 2.91, "cell count, replicate 1": 6833, "activity call": "inactive"}
{"predicted target": "mv (GeneID 38259)", "dsRNA": "DRSC08570", "infection score, replicate 1": 2.12, "cell count, replicate 1": 6569, "activity call": "inactive"}
{"predicted target": "mv (GeneID 38259)", "dsRNA": "DRSC28733", "infection score, replicate 1": 3.88, "cell count, replicate 1": 1442, "activity call": "inactive"}
{"predicted target": "CG2611 (GeneID 35324)", "dsRNA": "DRSC02710", "infection score, replicate 1": 22.4, "cell count, replicate 1": 6362, "activity call": "inactive"}
{"predicted target": "CG2611 (GeneID 35324)", "dsRNA": "DRSC26640", "infection score, replicate 1": 4.57, "cell count, replicate 1": 6190, "activity call": "inactive"}
{"predicted target": "RpLP1 (GeneID 33214)", "dsRNA": "DRSC00783", "infection score, replicate 1": 2.64, "cell count, replicate 1": 6778, "activity call": "inactive"}
{"predicted target": "RpLP1 (GeneID 33214)", "dsRNA": "DRSC22145", "infection score, replicate 1": 2.19, "cell count, replicate 1": 2875, "activity call": "inactive"}
{"predicted target": "RpLP1 (GeneID 33214)", "dsRNA": "DRSC23411", "infection score, replicate 1": 4.18, "cell count, replicate 1": 2131, "activity call": "inactive"}

Copied from the entries so far (2 entries):
{"predicted target": "RpLP2 (GeneID 36855)", "dsRNA": "DRSC28510", "infection score, replicate 1": 3.3, "cell count, replicate 1": 576, "activity call": "inactive"}
{"predicted target": "SmydA-1 (GeneID 36581)", "dsRNA": "DRSC07200", "infection score, replicate 1": 7.21, "cell count, replicate 1": 5921, "activity call": "inactive"}

Next reagents follow.
{"predicted target": "Pp2C1 (GeneID 31404)", "dsRNA": "DRSC23287", "infection score, replicate 1": 3.02, "cell count, replicate 1": 6467, "activity call": "inactive"}
{"predicted target": "Pp2C1 (GeneID 31404)", "dsRNA": "DRSC28091", "infection score, replicate 1": 21, "cell count, replicate 1": 5307, "activity call": "inactive"}
{"predicted target": "Kap-alpha1 (GeneID 40160)", "dsRNA": "DRSC11356", "infection score, replicate 1": 6.28, "cell count, replicate 1": 6494, "activity call": "inactive"}
{"predicted target": "CG12419 (retired record) (GeneID 41218)", "dsRNA": "DRSC14513", "infection score, replicate 1": 10.5, "cell count, replicate 1": 6287, "activity call": "inactive"}
{"predicted target": "CG12419 (retired record) (GeneID 41218)", "dsRNA": "DRSC23888", "infection score, replicate 1": 16.6, "cell count, replicate 1": 5916, "activity call": "inactive"}
{"predicted target": "Dsp1 (GeneID 117294)", "dsRNA": "DRSC23078", "infection score, replicate 1": 2.3, "cell count, replicate 1": 5519, "activity call": "inactive"}
{"predicted target": "Dsp1 (GeneID 117294)", "dsRNA": "DRSC28760", "infection score, replicate 1": 8.86, "cell count, replicate 1": 1197, "activity call": "inactive"}
{"predicted target": "Polr2L (GeneID 42942)", "dsRNA": "DRSC14630", "infection score, replicate 1": 4.71, "cell count, replicate 1": 6222, "activity call": "inactive"}
{"predicted target": "jet (GeneID 33705)", "dsRNA": "DRSC03116", "infection score, replicate 1": 10.3, "cell count, replicate 1": 5589, "activity call": "inactive"}
{"predicted target": "jet (GeneID 33705)", "dsRNA": "DRSC26732", "infection score, replicate 1": 5.17, "cell count, replicate 1": 6750, "activity call": "inactive"}
